Values from PubChem BioAssay AID1259414 (Drosophila RNAi Screening Center, 2018)

Test: 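Genome-wide screen for host control of endosymbiont load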 (primary screen)
System: Drosophila JW18 cells infected with Wolbachia
Reagent: long dsRNA against Drosophila genes, 0.25 µg dsRNA per well of a 384-well plate
Time to read-out: 5 days
Conditions: cells persistently infected with Wolbachia before knock-down; no added drug
Detection: 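Automated imaging of bacterial rRNA staining divided by host cell count, reported as plate-normalised robust z-score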
Direction: Wolbachia per cell robust z: higher = more Wolbachia per host cell than the plate typical
Rule for the call: 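Hit when robust z is 1.5 or more, or -1.5 or less, in at least two of three replicates; excludes dsRNAs with several or no targets, genes not expressed in JW18 and well A1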
The deposit covers about 24,000 reagents; this is an unselected part of those with a known target gene and a result. In the full data, about 1,210 (5%) were called active. 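Inactive calls also include excluded dsRNAs with several or no targets, genes unexpressed in JW18, and well A1, regardless of score.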 Unmarked entries are inactive. Reagents against one gene are numbered here. A plus sign joins genes that one reagent is predicted to hit. No sequences are given here.

Target gene | reagent no. | Wolbachia per cell robust z, rep 1 | Wolbachia per cell robust z, rep 2 | Wolbachia per cell robust z, rep 3
ppk21 (pickpocket 21) | 1 | -0.694 | 0.0308 | -0.327
Tb (Tubby) | 1 | -1.09 | -1.63 | -1.72
Tb (Tubby) | 2 | 0.175 | -0.325 | 0.62
CG2924 | 1 | -1.08 | 0.51 | -2.12
CG2924 | 2 | 0.02 | 0.18 | 0.689
Actn3 (alpha actinin 3) | 1 | 0.505 | -1.03 | -0.137
Act88F (Actin 88F) | 1 | 2.01 | 3.15 | 1.51
Act88F (Actin 88F) | 2 | -1.66 | 0.0718 | -0.931
dgt4 (dim gamma-tubulin 4) | 1 | -4.24 | 0.169 | -0.664
dgt4 (dim gamma-tubulin 4) | 2 | 0.203 | 0.244 | 1.11
Qsox3 (Quiescin sulfhydryl oxidase 3) | 1 | 0.783 | 0.361 | -0.408
pre-mod(mdg4)-AD + pre-mod(mdg4)-X + pre-mod(mdg4)-W + 3 more | 1 | -0.138 | 0.182 | -0.682
CG7227 | 1 | 0.759 | 1.21 | -0.16

Targets listed so far whose target name starts with T or t:
Target gene | reagent no. | Wolbachia per cell robust z, rep 1 | Wolbachia per cell robust z, rep 2 | Wolbachia per cell robust z, rep 3
Tb (Tubby) | 1 | -1.09 | -1.63 | -1.72
Tb (Tubby) | 2 | 0.175 | -0.325 | 0.62

Additional entries follow:
Target gene | reagent no. | Wolbachia per cell robust z, rep 1 | Wolbachia per cell robust z, rep 2 | Wolbachia per cell robust z, rep 3
Cpr97Eb (Cuticular protein 97Eb) | 1 | 0.302 | -3.03 | -0.132
flap (flapper) | 1 | -0.344 | -0.436 | -0.524
flap (flapper) | 2 | 0.523 | -0.107 | -0.376
CG15056 | 1 | -4.34 | -0.209 | -1.63
Cpsf100 (Cleavage and polyadenylation specificity factor 100) | 1 | 1.45 | -0.216 | -1.47
Cpsf100 (Cleavage and polyadenylation specificity factor 100) | 2 | 1.13 | 1.01 | 0.47
Hexo2 (Hexosaminidase 2) | 1 | -0.787 | -3.19 | -1.37
Jon25Bii (Jonah 25Bii) | 1 | -6.54 | 0.782 | -0.537
Jon25Bii (Jonah 25Bii) | 2 | -2.7 | 0.248 | 0.21
SP1029 | 1 | -0.233 | -0.703 | 0.844
SP1029 | 2 | -0.65 | 0.56 | -0.868
l(3)80Fg + CR41320 | 1 | 1.72 | 0.0229 | -0.0456
CG7840 | 1 | 0.207 | 0.194 | -1.36
SoxN (SoxNeuro) | 1 | -3.84 | 0.56 | -0.0355
SoxN (SoxNeuro) | 2 | 0.925 | -0.0684 | 0.376
